A mixed list of measured activities; the numbers were collected in NIAID ChemDB.

Shared fields: tests in culture; organism: HIV-1

ECn is the concentration giving n% inhibition of infection, replication or growth.

structure	mutations	cells	method	strain or isolate	measure	value
Cc1cc(O)cc(S(=O)(=O)c2cccc(N)c2C#N)c1	RT-P236L	HeLa + HELA CD4+	β-galactosidase		EC50	0.07 µM
Cc1cc(/C=C/C#N)cc(C)c1Oc1nc(N/N=C/c2ccc(C#N)cc2)nc2ccsc12	K103N/Y181C	MT-4	MTT	RES056	EC50	>96.6 µM
C#Cc1ccc(Nc2nccc(Oc3c(C)cc(-c4cn(CC(=O)OC)nn4)cc3C)n2)cc1	Y181C	MT-4	MTT	IIIB	EC50	>10.35 µM
COc1cc2c(c(OC)c1OC)-c1c(cc(OC)c(OC)c1OC)C[C@H](C)[C@H](C)C2		Jurkat cells	MTT		EC50	>20 µM
CC(C)(C)NC(=O)[C@@H]1CSCN1C(=O)[C@@H](O)[C@H](Cc1ccccc1)NC(=O)[C@H](CC(N)=O)NC(=O)COc1cccc2ccccc12		ATH8	trypan blue	LAI	EC50	0.5 µM
Cc1cn([C@H]2C[C@H](N=[N+]=[N-])[C@@H](CO)O2)c(=O)[nH]c1=O	RT-D67N K70R T215Y	MT-2		HXB2D (RT D67N K70R T215Y)	EC50	0.0044 µM
Cc1cc(C#N)cc(C)c1Oc1nc(N/N=C/c2ccc(C#N)c(F)c2)nc2ccsc12	K103N/Y181C	MT-4	MTT	RES056	EC50	>56.5 µM
Nc1nc2c(ncn2[C@H]2CC[C@@H](CO)O2)c(=O)[nH]1	RT-L100I Y188H	CEM	syncytia	IIIB TIBO R82913 STR-B22 (RT L100I Y188H)	EC50	2 µM
CC1CNC(=O)c2ccccc2SSc2ccccc2C(=O)N1		C8166	ELISA	MN	EC50	0.05 µg/mL
C#Cc1ccc(Nc2nccc(Oc3c(C)cc(-c4cn(Cc5ccccc5[N+](=O)[O-])nn4)cc3C)n2)cc1	Y188L	MT-4	MTT	IIIB	EC50	>7.22 µM
O=c1[nH]cnc2c1ncn2[C@H]1CC[C@@H](CO)O1	RT-A360T	MT-2	p24	NL4-3	EC50	0.17 µM
C[C@H](Cn1cnc2c(N)ncnc21)OCP(=O)(O)O		CEM	syncytia	IIIB	EC50	1.2 µM
CCOCn1c(Cc2ccccc2)c(C(C)C)c(=O)[nH]c1=O	RT-K103N	CEM	syncytia	IIIB	EC50	0.38 µg/mL
NCCNc1ccc2[nH]ccc2c1		MT-4	MTT	IIIB	EC50	>252 µM
CC(C)=CCN1Cc2cccc3[nH]c(=S)n(c23)C[C@@H]1C		CEM	syncytia	IIIB	EC50	0.02 µM
CNS(=O)(=O)c1ccc(CN2CCC(/C=N/Nc3nc(Oc4c(C)cc(C#N)cc4C)c4sccc4n3)CC2)cc1		MT-4	MTT	IIIB	EC50	>3.82 µM
C#Cc1ccc(Nc2nccc(Oc3c(C)cc(-c4cn(CCc5ccccc5)nn4)cc3C)n2)cc1	F227L and V106A	MT-4	MTT	IIIB	EC50	>5.66 µM
Nc1ccn([C@H]2CC[C@@H](CO)O2)c(=O)n1	RT-K65R S68G	MT-2	p24 / ELISA	HXB2-MT 65+68 (RT K65R S68G)	EC50	0.44 µM
CC(C)(C)NC(=O)[C@H]1N(C(=O)[C@@H](O)[C@H](Cc2ccccc2)NC(=O)[C@H](CC(N)=O)NC(=O)COc2cccc3ccccc23)CSC1(C)C		ATH8	trypan blue	LAI	EC50	0.4 µM
CC(C)(C)NC(=O)[C@@H]1C[C@@H]2CCCC[C@@H]2CN1C[C@@H](O)[C@H](Cc1ccccc1)NC(=O)[C@H](CC(N)=O)NC(=O)c1ccc2ccccc2n1	PR-D30N N88D	MT-4	p24	NL4-3	EC90	0.01 µM
Nc1ccn([C@H]2CC[C@@H](CO)O2)c(=O)n1		H9	p24	LAV	EC50	<1 µM
CC(C)(C)NC(=O)[C@@H]1CCCN1C(=O)[C@@H](O)[C@H](Cc1ccccc1)NC(=O)[C@H](CC(N)=O)NC(=O)OCc1ccccc1		ATH8	trypan blue	LAI	EC50	1.1 µM
Cc1occc1C(=S)Nc1ccc(Cl)c(/C=N/OC(C)(C)C)c1	RT-Y188L	CEM	syncytia	IIIB	EC50	0.65 µg/mL
c1cc2cc(NCCNC3=NCCN3)ccc2[nH]1		MT-4	MTT	IIIB	EC50	>88.57 µM
C#Cc1ccc(Nc2nccc(Oc3c(C)cc(-c4cn(-c5ccc(C(=O)OC)cc5)nn4)cc3C)n2)cc1	E138K	MT-4	MTT	IIIB	EC50	0.16 µM
Cc1cn([C@@H]2O[C@H](CO[Si](C)(C)C(C)(C)C)C3(OS(=O)(=O)C=C3N)[C@H]2O[Si](C)(C)C(C)(C)C)c(=O)n(C)c1=O	RT-K103N	CEM	syncytia	IIIB	EC50	0.138 µg/mL
Nc1nc(=O)n([C@@H]2CS[C@H](CO)O2)cc1F	M184V	MT-2	recombinant virus assay	Clinical isolate	EC50	13.3 µM
Cc1cc(C#N)cc(C)c1Oc1nc(N/N=C/C2CCN(Cc3ccccn3)CC2)nc2ccsc12		MT-4	MTT	IIIB	EC50	>4.18 µM
Cc1cn([C@H]2CC[C@@H](CO)O2)c(=O)[nH]c1=O		H9	p24	LAV	EC50	>100 µM
NC(=NCC(=O)NCCNc1ccc2[nH]ccc2c1)N[N+](=O)[O-]		MT-4	MTT	IIIB	EC50	>391 µM
Cc1cc(C#N)cc(C)c1Oc1nc(N/N=C/C2CCN(Cc3ccc(F)cc3)CC2)nc2ccsc12		MT-4	MTT	IIIB	EC50	>5.48 µM
CSC[C@H](NC(=O)COc1cccc2cnccc12)C(=O)N[C@@H](Cc1ccccc1)[C@H](O)C(=O)N1CSC(C)(C)[C@H]1C(=O)NC(C)(C)C		ATH8	trypan blue	RF	EC50	0.02 µM
CC(C)Nc1cccnc1N1CCN(C(=O)c2cc3cc(NS(C)(=O)=O)ccc3[nH]2)CC1	RT-M184V	CEM	syncytia	IIIB	EC50	0.003 µg/mL
Cc1cc(Br)cc(S(=O)(=O)c2cccc(N)c2C#N)c1	RT-V108I Y181C	HeLa + HELA CD4+	β-galactosidase		EC50	13 µM
Cc1cn([C@H]2C[C@H](N=[N+]=[N-])[C@@H](CO)O2)c(=O)[nH]c1=O	RT-K65R S68G	MT-2	p24 / ELISA	HXB2-MT 65+68 (RT K65R S68G)	EC50	0.005 µM
Cc1cn([C@H]2C[C@H](N=[N+]=[N-])[C@@H](CO)O2)c(=O)[nH]c1=O	E138K	MT-4	MTT	IIIB	EC50	0.016 µM
Cc1cn([C@H]2C=C[C@@H](CO)O2)c(=O)[nH]c1=O		MT-2	cytopathic effect / XTT	HXB2D	EC50	0.008 µM
COc1cc(C(F)(F)F)cc(S(=O)(=O)c2cccc(N)c2C#N)c1	RT-Y181C	HeLa + HELA CD4+	β-galactosidase		EC50	13 µM
C=C1[C@H](CO)[C@@H](O)C[C@@H]1n1cnc2c(=O)[nH]c(N)nc21		MT-4	MTT	IIIB	EC50	0.003 µM
Cc1cn([C@H]2C=C[C@@H](CO)O2)c(=O)[nH]c1=O	M41L/D67N/K70R/A98G/K101E/M184V/G190A/L210W/T215Y/K219E	MT-2	recombinant virus assay	Clinical isolate	EC50	0.816 µM
CCNC(N)=NCCNc1ccc2[nH]ccc2c1		MT-4	MTT	IIIB	EC50	>47.28 µM
Cc1cc(C#N)cc(C)c1Oc1nc(N/N=C/C2CCN(Cc3ccc(S(N)(=O)=O)cc3)CC2)nc2ccsc12		MT-4	MTT	IIIB	EC50	>3.6 µM
NCCCNc1ccc2[nH]ccc2c1		MT-4	MTT	IIIB	EC50	>229 µM
CC(C)=CCN1Cc2cc(Cl)cc3[nH]c(=S)n(c23)C[C@@H]1C	RT-L100I E138K	CEM	syncytia	IIIB TIBO R82913 STR-B02 (RT L100I E138K)	EC50	5 µM
Cc1cc(C#N)cc(C)c1Oc1nc(N/N=C/c2ccc(C#N)cc2)nc2ccsc12		MT-4	MTT	IIIB	EC50	0.0212 µM
C#Cc1ccc(Nc2nccc(Oc3c(C)cc(-c4cn(Cc5ccc(S(N)(=O)=O)cc5)nn4)cc3C)n2)cc1	Y188L	MT-4	MTT	IIIB	EC50	≥3.56 µM
CCOCn1c(Cc2cc(C)cc(C)c2)c(CC)c(=O)[nH]c1=O	RT-L100I	CEM	syncytia	IIIB TIBO R82150-resistant (RT L100I)	EC50	0.054 µM
C[C@H](Cn1cnc2c(N)ncnc21)OCP(=O)(O)O	RT-D67N K70R T215Y	MT-2		HXB2D (RT D67N K70R T215Y)	EC50	0.0072 µM
C#Cc1ccc(Nc2nccc(Oc3c(C)cc(-c4cn(CCCC(=O)OC)nn4)cc3C)n2)cc1	Y188L	MT-4	MTT	IIIB	EC50	>20.15 µM
Cc1cn([C@@H]2O[C@H](CO[Si](C)(C)C(C)(C)C)C3(OS(=O)(=O)C=C3N)[C@H]2O[Si](C)(C)C(C)(C)C)c(=O)n(C)c1=O	RT-L100I	CEM	syncytia	IIIB TIBO R82150-resistant (RT L100I)	EC50	0.05 µM
Cc1c(N)nc(N)nc1OCCOCP(=O)(O)O		CEM	syncytia	IIIB	EC50	0.23 µM

The last 3 rows once more:

C#Cc1ccc(Nc2nccc(Oc3c(C)cc(-c4cn(CCCC(=O)OC)nn4)cc3C)n2)cc1 ; mutations: Y188L ; cells: MT-4 ; method: MTT ; strain or isolate: IIIB ; measure: EC50 ; value: >20.15 µM
Cc1cn([C@@H]2O[C@H](CO[Si](C)(C)C(C)(C)C)C3(OS(=O)(=O)C=C3N)[C@H]2O[Si](C)(C)C(C)(C)C)c(=O)n(C)c1=O ; mutations: RT-L100I ; cells: CEM ; method: syncytia ; strain or isolate: IIIB TIBO R82150-resistant (RT L100I) ; measure: EC50 ; value: 0.05 µM
Cc1c(N)nc(N)nc1OCCOCP(=O)(O)O ; cells: CEM ; method: syncytia ; strain or isolate: IIIB ; measure: EC50 ; value: 0.23 µM

Rows are shuffled and stem from different studies. An empty or dashed field is not shown.